Compound potency records, mixed from different reports. Data source: NIAID ChemDB in PubChem.

All rows: target-level tests; species: Hepatitis C virus; protein: Nonstructural protein 5B; read-out: IC50

a–b is a range or a potency band. An empty or dashed field is not shown. Rows are shuffled and stem from different studies. ICn is the concentration giving n% inhibition.

| SMILES | read by | strain or isolate | result |
|---|---|---|---|
| CNC(=O)C1(c2ccc(F)cc2)Cc2cc(OC)c(-c3nnco3)cc2O1 |  |  | ≤0.5 µM |
| O=C(O)CN1C(=O)C(=Cc2ccc(-c3cc(Cl)cc(Cl)c3)o2)SC1=S |  |  | ≤1 µM |
| COc1cc(OC)c(CCC2(C3CCCC3)CC(O)=C(Sc3nnc(-c4cccs4)n3C)C(=O)O2)cc1Cl |  |  | <1 µM |
| CC(=O)c1ccc(-c2ccc(C=C3SC(=S)N(c4ccc(C(=O)O)cc4)C3=O)o2)cc1 |  |  | ≤1 µM |
| COc1c(-c2ccc3cc(NS(C)(=O)=O)ccc3c2)cc(-n2ccc(=O)[nH]c2=O)cc1C(C)(C)C | nucleotide incorporation | GT 1b-BK | 0.0031 µM |
| CNC(=O)c1c(-c2ccccc2)oc2cc(OC)c(OC)cc12 |  |  | ≤0.5 µM |
| O=C(O)c1ccc(N2C(=O)C(=Cc3ccc(-c4c(F)c(F)nc(F)c4F)o3)SC2=S)cc1 |  |  | ≤1 µM |
| Cc1cc(SC2=C(O)CC(CCC3CCCC3)(C3CCCC3)OC2=O)c(C(C)(C)C)cc1CO |  |  | 10–50 µM |
| CNC(=O)c1c(-c2ccc(F)cc2)oc2cc(N(CCOC)S(C)(=O)=O)c(OC)cc12 |  |  | ≤0.5 µM |
| CC(C)(C#N)c1cccc(CCC2(C3CCCC3)CC(=O)CC(=O)O2)c1 |  |  | 1–10 µM |
| COc1ccc(Br)cc1-c1ccc(C=C2SC(=S)N(c3ccc(C(=O)O)cc3)C2=O)o1 |  |  | ≤1 µM |
| CC(C)COc1ccc(CCC2(C3CCCC3)CC(=O)CC(=O)O2)cc1F |  |  | 1–10 µM |
| CCOC(=O)c1cc(-c2ccc(C=C3SC(=S)N(CC(=O)O)C3=O)o2)ccc1Cl |  |  | ≤1 µM |
| CNC(=O)c1c(-c2ccc(F)cc2)oc2cc(OC)c(OC(C)C)cc12 |  |  | ≤0.5 µM |
| O=C1CC(=O)OC(CCc2ccc(N3CCCC3=O)cc2)(C2CCCC2)C1 |  |  | 1–10 µM |

Repeating the final 2 entries:

| SMILES | read by | strain or isolate | result |
|---|---|---|---|
| CNC(=O)c1c(-c2ccc(F)cc2)oc2cc(OC)c(OC(C)C)cc12 |  |  | ≤0.5 µM |
| O=C1CC(=O)OC(CCc2ccc(N3CCCC3=O)cc2)(C2CCCC2)C1 |  |  | 1–10 µM |